# HIV-1 5' UTR: effect of mutations on RNA dimer formation

Reference: Ye et al. 2022, doi:10.1038/s41594-022-00746-2.

The 5' region of HIV-1 NL4-3 RNA (positions 1-437):
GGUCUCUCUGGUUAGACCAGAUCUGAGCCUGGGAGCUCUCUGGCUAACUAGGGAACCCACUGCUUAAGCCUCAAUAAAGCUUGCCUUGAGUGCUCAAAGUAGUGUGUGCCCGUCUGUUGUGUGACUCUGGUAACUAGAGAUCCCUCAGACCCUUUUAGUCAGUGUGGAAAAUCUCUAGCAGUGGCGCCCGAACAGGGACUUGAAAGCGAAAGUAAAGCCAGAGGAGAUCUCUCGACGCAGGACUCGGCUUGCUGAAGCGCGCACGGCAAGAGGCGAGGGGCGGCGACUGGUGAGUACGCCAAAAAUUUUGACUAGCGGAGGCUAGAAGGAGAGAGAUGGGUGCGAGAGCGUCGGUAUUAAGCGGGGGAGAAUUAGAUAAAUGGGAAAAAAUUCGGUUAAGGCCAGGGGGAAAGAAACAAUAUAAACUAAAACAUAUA

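Randomly mutated transcripts starting with one, two or three G (1G, 2G, 3G), capped or uncapped, were folded for 30 min at 37 °C. Monomer and dimer bands were cut from native gels after folding in high salt (300 mM KCl, 5 mM MgCl2) or low salt (40 mM KCl, 0.1 mM MgCl2). Kdimer compares mutation frequencies in monomer and dimer, corrected for sequencing errors.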

Scale: median log2 Kdimer over the changes at a position; positive = changes inhibit dimerization, negative = changes enhance it.
One numbering serves 1G, 2G and 3G.
A position is written with its base.

For A192 the result was 1G capped high-salt 0.07; 1G uncapped low-salt 0.04. C193 read 1G capped high-salt 0.08; 1G uncapped low-salt -0.16. For A194 the result was 1G capped high-salt 0.13; 1G uncapped low-salt 0.34. G195 gave 1G capped high-salt 0.31; 1G uncapped low-salt 0.43. G196 read 1G capped high-salt 0.32; 1G uncapped low-salt 0.53. G197 gave 1G capped high-salt 0.11; 1G uncapped low-salt 0.39.

With A198 the assay gave 1G capped high-salt 0.18; 1G uncapped low-salt -0.22. With C199 the assay gave 1G capped high-salt -0.16; 1G uncapped low-salt 0.02. With U200 the assay gave 1G capped high-salt 0.19; 1G uncapped low-salt 0.04. With U201 the assay gave 1G capped high-salt 0.15; 1G uncapped low-salt 0.00. G202 gave 1G capped high-salt -0.13; 1G uncapped low-salt -0.10. A203 gave 1G capped high-salt 0.50; 1G uncapped low-salt 0.50.

A204 gave 1G capped high-salt 0.21; 1G uncapped low-salt -0.11. For A205 the result was 1G capped high-salt 0.17; 1G uncapped low-salt 0.05. With G206 the assay gave 1G capped high-salt -0.81; 1G uncapped low-salt -0.48. With C207 the assay gave 1G capped high-salt -0.53; 1G uncapped low-salt -0.35. G208 gave 1G capped high-salt -0.09; 1G uncapped low-salt -0.27. A209 read 1G capped high-salt 0.99; 1G uncapped low-salt 0.68.

A210 gave 1G capped high-salt 0.04; 1G uncapped low-salt -0.13. A211 read 1G capped high-salt -0.24; 1G uncapped low-salt -0.30. With G212 the assay gave 1G capped high-salt -0.78; 1G uncapped low-salt -0.61. For U213 the result was 1G capped high-salt -0.11; 1G uncapped low-salt -0.47. For A214 the result was 1G capped high-salt -0.04; 1G uncapped low-salt -0.10. For A215 the result was 1G capped high-salt -0.27; 1G uncapped low-salt -0.23.

With A216 the assay gave 1G capped high-salt -0.27; 1G uncapped low-salt -0.49. For G217 the result was 1G capped high-salt -1.02; 1G uncapped low-salt -1.08. C218 read 1G capped high-salt -0.66; 1G uncapped low-salt -0.86. For C219 the result was 1G capped high-salt 0.22; 1G uncapped low-salt 0.45. A220 gave 1G capped high-salt 0.08; 1G uncapped low-salt -0.07. For G221 the result was 1G capped high-salt -0.29; 1G uncapped low-salt 0.49.

A222 read 1G capped high-salt -0.13; 1G uncapped low-salt 0.56. G223 gave 1G capped high-salt 0.02; 1G uncapped low-salt 0.49. G224 read 1G capped high-salt 0.14; 1G uncapped low-salt -0.25. With A225 the assay gave 1G capped high-salt -0.16; 1G uncapped low-salt -0.19. With G226 the assay gave 1G capped high-salt -0.64; 1G uncapped low-salt -0.67. A227 gave 1G capped high-salt 1.14; 1G uncapped low-salt 1.14.

With U228 the assay gave 1G capped high-salt 0.06; 1G uncapped low-salt 0.12. C229 gave 1G capped high-salt 0.36; 1G uncapped low-salt 0.24. With U230 the assay gave 1G capped high-salt 0.45; 1G uncapped low-salt 0.64. C231 gave 1G capped high-salt -0.19; 1G uncapped low-salt 0.05. For U232 the result was 1G capped high-salt 0.18; 1G uncapped low-salt 0.86. C233 gave 1G capped high-salt 0.78; 1G uncapped low-salt 0.78.

With G234 the assay gave 1G capped high-salt 0.95; 1G uncapped low-salt -0.16. With A235 the assay gave 1G capped high-salt -1.02; 1G uncapped low-salt -1.22. C236 gave 1G capped high-salt 2.55; 1G uncapped low-salt 1.41.